Pooled drug test results. Numbers come from NIAID ChemDB, via PubChem.

Common to all: tests on isolated targets; target: CCR5; endpoint: IC50

ICn is the concentration giving n% inhibition. An empty or dashed field is not shown. Neighbouring rows are from separate reports.

SMILES	mutations	method	result
C=C(Cl)CN(C(=O)OCc1ccccc1)C1CCN(CCC(C)(CN(C)S(=O)(=O)c2ccccc2)c2ccccc2)CC1		radioligand binding / binding	0.005 µM
CCO/N=C(\c1ccc(Br)cc1)C1CCN(C2(C)CCN(C(=O)c3c(C)cc[n+]([O-])c3C)CC2)CC1		radiometric	0.01 µM
CCN(C(=O)OCc1ccccc1)C1CCN(CCC(COC)(CN(C)S(=O)(=O)c2ccccc2)c2ccccc2)CC1		radioligand binding / binding	0.0023 µM
CN(C[C@@H](CCN1CCC(O)(CCCc2ccccc2)CC1)c1cccc(Cl)c1)S(=O)(=O)c1ccccc1		radioligand binding / binding	0.1 µM
CCN(C(=O)OCc1ccccc1)C1CCN(CCC(COC(C)=O)(CN(C)S(=O)(=O)c2ccccc2)c2ccccc2)CC1		radioligand binding / binding	0.013 µM
CN(CC(CCN1CCC(c2ccccc2)CC1)c1cccc(-c2ccccc2)c1)S(=O)(=O)c1ccccc1		radioligand binding / binding	<10 µM
CN(CC(CN1CCC2(CC1)CS(=O)c1ccccc12)c1ccccc1)S(=O)(=O)c1ccccc1		radioligand binding / binding	>10 µM
C=CCN(C(=O)OCc1ccccc1)C1CCN(CC[C@](C)(CN(C)S(=O)(=O)c2ccccc2)c2ccccc2)CC1		radioligand binding / binding	0.001 µM
CN(C[C@@H](CCN1CCC2(CC1)CS(=O)c1ccccc12)c1ccc(F)cc1)S(=O)(=O)c1ccccc1		radioligand binding / binding	0.67 µM
CCCN(C(=O)OCc1cccc2ccccc12)C1CCN(CCC(CN(C)S(=O)(=O)c2ccccc2)c2ccccc2)CC1		radioligand binding / binding	0.005 µM
CCN(C(=O)OCc1ccccc1)C1CCN(CCC(CN(C)S(=O)(=O)c2ccccc2)c2ccccc2)CC1		radioligand binding / binding	0.002 µM
CC(C)C(=O)N1C[C@H](CN2CCC(c3ccccc3)CC2)[C@@H](c2ccccc2)C1	CCR5-Y37A	radiometric	0.18 µM
CN(CCC(CCN1CCC2(CC1)CS(=O)(=O)c1ccccc12)c1ccccc1)S(=O)(=O)c1ccccc1		radioligand binding / binding	0.34 µM
CN(CC(CCN1CCC2(CC1)CS(=O)c1ccccc12)C1CCCCC1)S(=O)(=O)c1ccccc1		radioligand binding / binding	<10 µM
CN(C[C@@H](CCN1CCC2(CC1)CS(=O)(=O)c1ccccc12)c1cccc(Cl)c1)S(=O)(=O)c1ccccc1		radioligand binding / binding	0.014 µM
CN(C[C@@H](CCN1CCC2(CC1)CSc1ccccc12)c1ccc2c(c1)OCO2)S(=O)(=O)c1ccccc1		radioligand binding / binding	0.7 µM
O=C(c1ccccc1Cl)N1C[C@H](CN2CCC(O)(CCCc3ccc(-c4nn[nH]n4)cc3)CC2)[C@@H](c2ccccc2)C1	CCR5-E283A	radiometric	>10 µM
CN(CC[C@H](CN(C)S(=O)(=O)c1ccccc1)c1cccc(Cl)c1)Cc1ccccc1		radioligand binding / binding	>10 µM
C#CCN(C(=O)OCc1ccccc1)C1CCN(CCC(C)(CN(C)S(=O)(=O)c2ccccc2)c2ccccc2)CC1		radioligand binding / binding	0.005 µM
CCN(C(=O)OCc1ccccc1)C1CCN(CCC(COCC[Si](C)(C)C)(CN(C)S(=O)(=O)c2ccccc2)c2ccccc2)CC1		radioligand binding / binding	>0.1 µM
COC(=O)N(CC1CCCCC1)C1CCN(CCC(CN(C)S(=O)(=O)c2ccccc2)c2ccccc2)CC1		radioligand binding / binding	0.005 µM
C=C(C)CN(C(=O)OCc1ccccc1)C1CCN(CCC(C)(CN(C)S(=O)(=O)c2ccccc2)c2ccccc2)CC1		radioligand binding / binding	0.003 µM
CN(C[C@@H](CCN1CCC2(CC1)CS(=O)c1ccccc12)c1cccc(Cl)c1)S(=O)(=O)c1ccccc1		radioligand binding / binding	0.01 µM
CN(CC(CCN1CCC2(CC1)CSc1ccccc12)c1cccs1)S(=O)(=O)c1ccccc1		radioligand binding / binding	1 µM
CN(C[C@@H](CCN1CCc2ccccc2C1)c1cccc(Cl)c1)S(=O)(=O)c1ccccc1		radioligand binding / binding	<10 µM

For reference, 2 entries again:

SMILES	mutations	method	result
O=C(c1ccccc1Cl)N1C[C@H](CN2CCC(O)(CCCc3ccc(-c4nn[nH]n4)cc3)CC2)[C@@H](c2ccccc2)C1	CCR5-E283A	radiometric	>10 µM
COC(=O)N(CC1CCCCC1)C1CCN(CCC(CN(C)S(=O)(=O)c2ccccc2)c2ccccc2)CC1		radioligand binding / binding	0.005 µM